Read-outs that look alike come from different tables or passages of the source.
How the values were obtained:
[1] = target: MtSerB2 (Mycobacterium tuberculosis, UniProt O53289); assay: Inhibition of MtSerB2 hydrolysis of L-phosphoserine (malachite green); type: biochemical, M. tuberculosis
[2] = target: PSP domain of MtSerB2 (PSPD) (Mycobacterium tuberculosis, UniProt O53289); type: biochemical, M. tuberculosis

Sequences of proteins named here, by UniProt entry; tags and fusion partners are left off. Residues count along the entry.
UniProt O53289, 165-409 limits assumed: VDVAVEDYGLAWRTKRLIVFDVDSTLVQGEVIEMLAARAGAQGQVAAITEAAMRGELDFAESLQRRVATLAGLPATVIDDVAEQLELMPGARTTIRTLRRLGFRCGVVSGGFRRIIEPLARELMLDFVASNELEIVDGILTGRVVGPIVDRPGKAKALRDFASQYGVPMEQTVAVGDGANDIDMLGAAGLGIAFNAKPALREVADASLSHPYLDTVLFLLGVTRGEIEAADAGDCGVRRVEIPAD

Sodium Vanadate
IC50 ([1]; read-out: IC50): ~2500 µM | IC50 ([1]; read-out: IC50 (µM) SerB2): 2540 ± 198 µM | IC50 [2]: 2240 ± 150 µM
